In the experiment the target is T1, NEDD8 (human, UniProt Q15843 1-76).
T1 construct: also called hNEDD8; source: E. coli, purified (Ni-NTA, HRV 3C cleavage, Superdex 75)
Put plainly: ITC. Particulars: both partners purified.

From paper PMC7214410, “A deubiquitylase with an unusually high-affinity ubiquitin-binding domain from the scrub typhus pathogen Orientia tsutsugamushi” (Nature Communications, 2020) come the findings set out here.

B1: OtDUB_(170–264) (the UBD) (domain or fragment)
chain: VNFLSENRMITSAAAALADTLLKNNNRITEGVLVDRIFDNKILSVQEKQQLLNNLLDNHIKENKSLTKESLTRMLASTHFVQQQANVLLNEKFNK
notes: source: E. coli Rosetta DE3, purified (glutathione resin, SEC)
Molecule B1 yielded a Kd of 31 ± 14 nM.
